In PMC12702776 (2025):

B1: GST-PAK1 RBD (RAC1 binding domain of p21-activated kinase 1) (domain or fragment)
chain: SILPGDKTNKKKEKERPEISLPSDFEHTIHVGFDAVTGEFTGMPEQWARLLQTSNITKSEQKKNPQAVLDVLEFYNSKKTSNSQK
B2: His-IQGAP1 C794 (C-terminal 794 amino acids of IQ motif-containing GTPase-activating protein 1) (domain or fragment)
chain: PPMVVVRKFVHLLDQSDQDFQEELDLMKMREEVITLIRSNQQLENDLNLMDIKIGLLVKNKITLQDVVSHSKKLTKKNKEQLSDMMMINKQKGGLKALSKEKREKLEAYQHLFYLLQTNPTYLAKLIFQMPQNKSTKFMDSVIFTLYNYASNQREEYLLLRLFKTALQEEIKSKVDQIQEIVTGNPTVIKMVVSFNRGARGQNALRQILAPVVKEIMDDKSLNIKTDPVDIYKSWVNQMESQTGEASKLPYDVTPEQALAHEEVKTRLDSSIRNMRAVTDKFLSAIVSSVDKIPYGMRFIAKVLKDSLHEKFPDAGEDELLKIIGNLLYYRYMNPAIVAPDAFDIIDLSAGGQLTTDQRRNLGSIAKMLQHAASNKMFLGDNAHLSIINEYLSQSYQKFRRFFQTACDVPELQDKFNVDEYSDLVTLTKPVIYISIGEIINTHTLLLDHQDAIAPEHNDPIHELLDDLGEVPTIESLIGESSGNLNDPNKEALAKTEVSLTLTNKFDVPGDENAEMDARTILLNTKRLIVDVIRFQPGETLTEILETPATSEQEAEHQRAMQRRAIRDAKTPDKMKKSKSVKEDSNLTLQEKKEKIQTGLKKLTELGTVDPKNKYQELINDIARDIRNQRRYRQRRKAELVKLQQTYAALNSKATFYGEQVDYYKSYIKTCLDNLASKGKVSKKPREMKGKKSKKISLKYTAARLHEKGVLLEIEDLQVNQFKNVIFEISPTEEVGDFEVKAKFMGVQMETFMLHYQDLLQLQYEGVAVMKLFDRAKVNVNLLIFLLNKKFYGK
B3: GST-GDI1 (guanosine dissociation inhibitor 1, full-length) (natural protein)
chain: MAEQEPTAEQLAQIAAENEEDEHSVNYKPPAQKSIQEIQELDKDDESLRKYKEALLGRVAVSADPNVPNVVVTGLTLVCSSAPGPLELDLTGDLESFKKQSFVLKEGVEYRIKISFRVNREIVSGMKYIQHTYRKGVKIDKTDYMVGSYGPRAEEYEFLTPVEEAPKGMLARGSYSIKSRFTDDDKTDHLSWEWNLTIKKDWKD

Columns and labels:
[1] = biological target: T1, RAC1^WT (Ras-related C3 botulinum toxin substrate 1, wild type), purified (human, UniProt P63000 1-192); assay: mGppNHp-bound RAC1
[2] = biological target: T1, RAC1^WT (Ras-related C3 botulinum toxin …); assay: FP; mGppNHp-bound RAC1
[3] = biological target: T1, RAC1^WT (Ras-related C3 botulinum toxin …); assay: mGppNHp-bound RAC1; remark: listed apart in the source
[4] = biological target: T1, RAC1^WT (Ras-related C3 botulinum toxin …); assay: mdGDP-bound RAC1

Binder | Kd [1] | Kd [2] | koff [3] | Kd [4]
B1 | 0.85 µM | 1.16 µM | 0.146 s⁻¹ | –
B2 | 1.4 µM | – | – | –
B3 | – | – | – | 0.47 µM
